Test results as given in patent US4602011A, “Antimicrobial compositions and methods of using same” (Chapman Chemical Company, priority 1982, dated 1986).

Test system: rice seedling emergence
Assay: rice seed treatment
Format: in vivo
Conditions: difference highest to lowest percent change

Compound: O=C1[C@H]2CC=CC[C@H]2C(=O)N1SC(Cl)(Cl)C(Cl)Cl (relative stereo)
- Performance Consistency: 47.8
